Measured values from several laboratories, pooled; numbers as filed in NIAID ChemDB.

Common to all: tests in culture

Neighbouring rows are from separate reports.

{"structure": "CN=C(N)c1ccc(N2CCN(c3ccccc3)CC2)cc1", "organism": "Pneumocystis carinii", "read-out": "inhibition", "dose": "50 µg/mL", "result": "62%"}
{"structure": "Nc1nc2c(ncn2COC2COP(=O)(O)OC2)c(=O)[nH]1", "cell line": "GPE", "organism": "Guinea pig herpesvirus", "method": "virus yield", "strain": "Lymphotropic", "read-out": "EC50", "result": "<0.9 µg/mL"}
{"structure": "Nc1ncnc2c1ncn2[C@@H]1C[C@H](N)[C@@H](O)[C@H]1O", "cell line": "CV-1", "organism": "Measles virus", "method": "neutral red", "strain": "BIL", "read-out": "EC50", "result": "100 µg/mL"}
{"structure": "O=S(=O)([O-])c1ccc2c(NS(=O)(=O)c3ccccc3)cc(S(=O)(=O)[O-])cc2c1", "cell line": "Human conjunctiva cells", "organism": "Herpes simplex virus", "method": "cytopathic effect", "read-out": "inhibition", "dose": "50 µg/mL", "result": "25%"}
{"structure": "NC(=NCc1ccccc1)c1ccc(N2CCN(c3ccccc3)CC2)cc1", "organism": "Pneumocystis carinii", "read-out": "inhibition", "dose": "10 µg/mL", "result": "91%"}
{"structure": "CCc1nc2ccc(Cl)cn2c1C(=O)NCc1ccc(-c2cccc(OC(F)(F)F)c2)c(F)c1", "organism": "Mycobacterium avium", "method": "fluorescence", "read-out": "inhibition", "dose": "0.0023 µM", "result": "85%"}
{"structure": "CCO/N=C/c1ccc(OCCC2CCN(c3ccc(Cl)nn3)CC2)cc1", "cell line": "KB", "organism": "Rhinovirus", "method": "neutral red", "strain": "2268-CV37 (ICAM-1 receptor group 60)", "read-out": "EC50", "result": "0.258 µM"}
{"structure": "CC(=O)N[C@H]1[C@H]([C@H](O)[C@H](O)CO)OC(C(=O)O)=C[C@@H]1N=C(N)N", "cell line": "MDCK", "organism": "Influenza B virus", "strain": "Panama/45/90", "read-out": "EC50", "result": "1.3 µM"}
{"structure": "CC(N)C12CC3CC(CC(C3)C1)C2", "cell line": "MDCK", "organism": "Influenza A virus", "method": "ELISA", "strain": "Influenza A/Guizhou/54/89 (H3N2)", "read-out": "EC50", "result": "0.018 µg/mL"}
{"structure": "Nc1ncnc2c1ncn2[C@@H]1C=C[C@@H](O)[C@H]1O", "cell line": "CV-1", "organism": "Measles virus", "method": "virus yield", "read-out": "EC50", "result": "<0.1 µg/mL"}
{"structure": "O=[N+]([O-])c1cc([N+](=O)[O-])c2ccc(S(=O)(=O)O)cc2c1O", "cell line": "Human amnion AV3 cells", "organism": "Herpes simplex virus", "method": "cytopathic effect", "read-out": "inhibition", "dose": "50 µg/mL", "result": "0%"}
{"structure": "CSc1nsc(-c2c(Cl)cccc2Cl)c1C#N", "cell line": "L929", "organism": "Encephalomyocarditis virus", "method": "plaque count", "strain": "Encephalomyocarditis virus", "read-out": "EC50", "result": ">5 µM"}
{"structure": "O=C(NNc1ccccn1)Nc1cc(C(F)(F)F)cc(C(F)(F)F)c1", "organism": "Klebsiella pneumoniae", "strain": "KL21", "read-out": "MIC", "result": ">300 µM"}
{"structure": "Cc1cc(CCCOc2c(C)cc(-c3noc(C(F)(F)F)n3)cc2C)on1", "cell line": "OHIO HELA-I", "organism": "Rhinovirus", "method": "cytopathic effect / visual reading", "strain": "Isolate 35", "read-out": "EC50", "result": "0.05 µg/mL"}
{"structure": "N#Cc1cc([N+](=O)[O-])ccc1Oc1ccc(Cl)c(Cl)c1", "cell line": "VERO", "organism": "Coxsackie virus", "strain": "TYPE A21", "read-out": "inhibition", "dose": "1.56 µg/mL", "result": "100%"}
{"structure": "O=S(=O)(O)c1cccc2c(O)cccc12", "cell line": "Human embryonic lung cells", "organism": "Adenovirus", "method": "cytopathic effect", "strain": "TYPE 3", "read-out": "inhibition", "dose": "10 µg/mL", "result": "0%"}
{"structure": "CCC(CC)[C@H](NC(C)=O)[C@@H]1C[C@@H](C(=O)O)C[C@H]1N=C(N)N", "cell line": "MDCK", "organism": "Influenza A virus", "strain": "H1N1 A/TEXAS/36/91", "read-out": "EC50", "result": "0.1 µM"}
{"structure": "O=C(Nc1c(S(=O)(=O)[O-])cc2cc(S(=O)(=O)[O-])cc(O)c2c1O)c1ccccc1", "cell line": "Human conjunctiva cells", "organism": "Herpes simplex virus", "method": "cytopathic effect", "read-out": "inhibition", "dose": "10 µg/mL", "result": "0%"}
{"structure": "O=C(NCc1ccc(Cl)cc1)c1c[nH]c2c(F)cccc2c1=O", "organism": "Varicella zoster virus", "method": "plaque count", "strain": "NAG", "read-out": "EC50", "result": "0.6 µM"}
{"structure": "NC(=O)NNC(=O)Nc1cc(C(F)(F)F)cc(C(F)(F)F)c1", "organism": "Klebsiella pneumoniae", "strain": "KL21", "read-out": "MIC", "result": ">446 µM"}
{"structure": "CSc1nsc(-c2ccc(O)cc2)c1C#N", "cell line": "L929", "organism": "Encephalomyocarditis virus", "method": "plaque count", "strain": "Encephalomyocarditis virus", "read-out": "EC50", "result": ">2 µM"}
{"structure": "CO[C@H]1/C=C/O[C@@]2(C)Oc3c(C)c(O)c4c(O)c(c(/C=N/N5CCN(C6CCCC6)CC5)c(O)c4c3C2=O)NC(=O)/C(C)=C\\C=C\\[C@H](C)[C@H](O)[C@@H](C)[C@@H](O)[C@@H](C)[C@H](OC(C)=O)[C@@H]1C", "organism": "Mycobacterium avium intracellulare", "strain": "AMT", "read-out": "MIC", "result": "1 µg/mL"}
{"structure": "Oc1ccc(O)c(C=Nc2ccccc2O)c1", "organism": "Cryptococcus gattii", "strain": "23/10993", "read-out": "MIC99", "result": "11.3 µg/mL"}
{"structure": "Cc1nsc(C)c1C#N", "cell line": "L929", "organism": "Encephalomyocarditis virus", "method": "plaque count", "strain": "Encephalomyocarditis virus", "read-out": "EC50", "result": ">1000 µM"}
{"structure": "O=C(Nc1ccc(S(=O)(=O)[O-])c2cccc(S(=O)(=O)[O-])c12)c1ccccc1", "cell line": "Human embryonic lung cells", "organism": "Adenovirus", "method": "cytopathic effect", "strain": "TYPE 3", "read-out": "inhibition", "dose": "50 µg/mL", "result": "30%"}
{"structure": "CCCCCCN=C(N)c1ccc(N2CCN(c3ccccc3)CC2)cc1", "organism": "Pneumocystis carinii", "read-out": "inhibition", "dose": "0.1 µg/mL", "result": "56%"}
{"structure": "CCC(CC)[C@H](NC(C)=O)[C@@H]1[C@H](O)[C@@H](C(=O)O)C[C@H]1N=C(N)N", "cell line": "MDCK", "organism": "Influenza A virus", "strain": "H1N1 A/NWS/33", "read-out": "EC50", "result": "21 µM"}
{"structure": "CCOC(=O)c1c(C)nc(NCCCCNc2ccnc3cc(Cl)ccc23)nc1-c1ccccc1", "organism": "Cryptococcus neoformans", "strain": "ATCC 28957", "read-out": "MIC99", "result": "1.4 µg/mL"}
{"structure": "C=CCc1ccc(OC)c(OC)c1", "organism": "Candida tropicalis", "method": "turbidity", "strain": "2467", "read-out": "MIC90", "result": "350 µg/mL"}
{"structure": "N#Cc1c(-c2ccccc2)nsc1Cl", "cell line": "HEP-2", "organism": "Coxsackie virus", "method": "plaque count", "strain": "TYPE B1", "read-out": "EC50", "result": ">20 µM"}
{"structure": "Nc1ncnc2c1ncn2[C@@H]1CC[C@@H](O)[C@H]1O", "cell line": "CV-1", "organism": "Measles virus", "method": "virus yield", "read-out": "EC50", "result": "0.4 µg/mL"}
{"structure": "C[C@@H](c1ncncc1F)[C@](O)(Cn1cncn1)c1ccc(F)cc1F", "organism": "Cryptococcus gattii", "method": "broth dilution", "strain": "CBS 11807", "read-out": "MIC", "result": "0.5 µg/mL"}
{"structure": "CSc1nsc(-c2ccc(C(F)(F)F)cc2)c1C#N", "cell line": "L929", "organism": "Encephalomyocarditis virus", "method": "plaque count", "strain": "Encephalomyocarditis virus", "read-out": "EC50", "result": ">14 µM"}
{"structure": "CCCCCCCCCCCCN=C(N)c1ccc(N2CCN(c3ccccc3)CC2)cc1", "organism": "Pneumocystis carinii", "read-out": "inhibition", "dose": "50 µg/mL", "result": "85%"}
{"structure": "Nc1ncnc2c1ncn2[C@@H]1C[C@H](Sc2ccccc2)[C@@H](O)[C@H]1O", "cell line": "CV-1", "organism": "Measles virus", "method": "cytopathic effect", "read-out": "EC50", "result": ">100 µg/mL"}
{"structure": "CC(C)(C)c1ccc(CSc2ncnc3c2ncn3[C@@H]2O[C@H](CO)[C@@H](O)[C@H]2O)cc1", "organism": "Toxoplasma gondii", "strain": "RH adenosine kinase-deficient", "read-out": "inhibition", "dose": "5 µM", "result": "0%"}
{"structure": "COc1ccn2nc(C)c(C(=O)NCc3ccc(N4CCN(c5ccc(OC(F)(F)F)cc5)[C@@H](C)C4)c(F)c3)c2c1.Cl", "organism": "Mycobacterium avium", "method": "fluorescence", "read-out": "inhibition", "dose": "0.0052 µM", "result": "85%"}
{"structure": "Nc1ccc2cc(S(=O)(=O)O)cc(S(=O)(=O)O)c2c1", "cell line": "Human embryonic lung cells", "organism": "Adenovirus", "method": "cytopathic effect", "strain": "TYPE 3", "read-out": "inhibition", "dose": "50 µg/mL", "result": "0%"}
{"structure": "Cc1cn2c(C(=O)NCc3ccc(C4CC5(CCN(c6ccc(C(F)(F)F)cc6)CC5)C4)c(F)c3)c(C)nc2s1", "organism": "Mycobacterium avium", "method": "fluorescence", "read-out": "inhibition", "dose": "0.15 µM", "result": "85%"}
{"structure": "O=S(=O)([O-])c1ccccc1S(=O)(=O)[O-]", "cell line": "Human amnion AV3 cells", "organism": "Herpes simplex virus", "method": "cytopathic effect", "read-out": "inhibition", "dose": "50 µg/mL", "result": "0%"}
{"structure": "O=C(Nc1ccc(C(F)(F)F)cc1)Nc1ccc(C(F)(F)F)cc1", "organism": "Escherichia coli", "strain": "ES142", "read-out": "MIC", "result": ">300 µM"}
{"structure": "CCc1nc2ccc(Cl)cn2c1C(=O)NCc1ccc(N2CCC(c3ccc(OC(F)(F)F)cc3)CC2)c(F)c1.Cl", "organism": "Mycobacterium avium", "method": "fluorescence", "read-out": "inhibition", "dose": "0.0072 µM", "result": "85%"}
{"structure": "O=C(CC(=O)Nc1cc(C(F)(F)F)cc(C(F)(F)F)c1)Nc1ccc(C(F)(F)F)cc1", "organism": "Escherichia coli", "strain": "ES142", "read-out": "MIC", "result": ">300 µM"}
{"structure": "Nc1ncnc2c1ncn2C=C1CC1CO", "organism": "Human cytomegalovirus", "method": "plaque count", "strain": "VR6200 (ganciclovir-susceptible)", "read-out": "EC50", "result": "1.6 µM"}
{"structure": "Cc1nc2ccc(F)cn2c1C(=O)NCc1ccc(N2CCC(c3ccc(OC(F)(F)F)cc3)CC2)c(F)c1.Cl", "organism": "Mycobacterium avium", "method": "fluorescence", "read-out": "inhibition", "dose": "0.079 µM", "result": "85%"}
{"structure": "O=S(=O)([O-])c1cc(O)c2ccccc2c1", "cell line": "Human amnion AV3 cells", "organism": "Herpes simplex virus", "method": "cytopathic effect", "read-out": "inhibition", "dose": "50 µg/mL", "result": "0%"}
{"structure": "Oc1ccccc1N=Cc1ccc2c(c1)OCO2", "organism": "Cryptococcus gattii", "strain": "1913 ER", "read-out": "MIC99", "result": "11.3 µg/mL"}
{"structure": "CC1(C)N=C(N)N=C(N)N1OCCCOc1cc(Cl)c(Cl)cc1Cl", "organism": "Mycobacterium avium complex", "strain": "1753", "read-out": "MIC", "result": "2 µg/mL"}
{"structure": "Nc1ncnc2c1ncn2[C@@H]1C[C@H](O)[C@@H](O)[C@H]1O", "cell line": "CV-1", "organism": "Measles virus", "method": "cytopathic effect", "read-out": "EC50", "result": "1 µg/mL"}
{"structure": "Nc1ccccc1S(=O)(=O)O", "cell line": "Human embryonic lung cells", "organism": "Rhinovirus", "method": "cytopathic effect", "read-out": "inhibition", "dose": "10 µg/mL", "result": "10%"}
{"structure": "CC(=O)N[C@H]1[C@H]([C@H](O)[C@H](O)CO)OC(C(=O)O)=C[C@@H]1N=C(N)N", "cell line": "MDCK", "organism": "Influenza A virus", "strain": "H1N1 A/PR/8/34", "read-out": "EC50", "result": "0.42 µM"}
{"structure": "CCOC(=O)c1cnc(NCCCCNc2ccnc3cc(Cl)ccc23)nc1C", "organism": "Cryptococcus gattii", "strain": "29/10893", "read-out": "MIC99", "result": "4 µg/mL"}
{"structure": "OC[C@H]1O[C@@H](n2cnc3c(SCc4ccc(OC(F)(F)F)cc4)ncnc32)[C@H](O)[C@@H]1O", "organism": "Toxoplasma gondii", "strain": "RH (WILD TYPE)", "read-out": "inhibition", "dose": "5 µM", "result": "6.9%"}
{"structure": "Cn1cc(C(=O)NCc2ccc(Cl)cc2)c(=O)c2cc(CN3CCOCC3)ccc21", "cell line": "HFF", "organism": "Varicella zoster virus", "method": "plaque count", "strain": "MO varicella isolate", "read-out": "inhibition", "dose": "3.6 µM", "result": "90%"}
{"structure": "Oc1ccccc1N=Cc1ccccc1", "organism": "Cryptococcus gattii", "strain": "135L/03", "read-out": "MIC99", "result": "8 µg/mL"}
{"structure": "O=C(O)P(=O)(O)O", "cell line": "HFF", "organism": "Cytomegalovirus", "method": "hybridisation", "strain": "AD169", "read-out": "inhibition", "dose": "800 µM", "result": "99.8%"}

A second listing of 5 rows from above:

structure | cell line | organism | method | strain | read-out | dose | result
Nc1ncnc2c1ncn2[C@@H]1C[C@H](N)[C@@H](O)[C@H]1O | CV-1 | Measles virus | neutral red | BIL | EC50 | - | 100 µg/mL
CCCCCCN=C(N)c1ccc(N2CCN(c3ccccc3)CC2)cc1 | - | Pneumocystis carinii | - | - | inhibition | 0.1 µg/mL | 56%
Cn1cc(C(=O)NCc2ccc(Cl)cc2)c(=O)c2cc(CN3CCOCC3)ccc21 | HFF | Varicella zoster virus | plaque count | MO varicella isolate | inhibition | 3.6 µM | 90%
Cc1nc2ccc(F)cn2c1C(=O)NCc1ccc(N2CCC(c3ccc(OC(F)(F)F)cc3)CC2)c(F)c1.Cl | - | Mycobacterium avium | fluorescence | - | inhibition | 0.079 µM | 85%
NC(=O)NNC(=O)Nc1cc(C(F)(F)F)cc(C(F)(F)F)c1 | - | Klebsiella pneumoniae | - | KL21 | MIC | - | >446 µM

ECn is the concentration giving n% inhibition of infection, replication or growth. Blank or dashed fields: not listed here. Percent inhibition refers to the dose given; in toxicity tests it is the harm to the cells. A number after MIC or MFC names an inhibition level or a share of isolates.